Laboratory results from patent US9102754B2, “Immunomodulatory compositions and methods for treating disease with modified host defense peptides” (priority 2007, dated 2015).

Tested on: trypsin
Assay: Proteolytic digest with trypsin, HPLC quantification
Details: peptide 1 mg/mL, trypsin 0.1 mg/ml

Row | Substance | time within which all molecules were cleaved at least once by trypsin (50 mM Tris pH 7.2, 37° C.) | intactness after trypsin digestion (after eight hours of digestion, 37° C.)
1 | H-GLRSLGRKILRAWKKYGPIIVPIIRIG-OH [BMAP-28, natural host defense peptide, a 27 amino acid proteolytic product of the antibacterial peptide BMAP-28 precursor protein] | ≤ 30 min | –
2 | D-amino acids of NH2-GIRIIPVIIPGYKKWARLIKRGLSRLG-COOH (D-amino acids, retro-inverso) [RI-BMAP-28, retro-inversed form of BMAP-28] | – | remained completely intact
